Data as given in patent publication US20020055094A1 (priority 1996, published 2002).

The chains behind the UniProt entries cited, without tags or fusion partners.
UniProt P06820, whole entry, looked up: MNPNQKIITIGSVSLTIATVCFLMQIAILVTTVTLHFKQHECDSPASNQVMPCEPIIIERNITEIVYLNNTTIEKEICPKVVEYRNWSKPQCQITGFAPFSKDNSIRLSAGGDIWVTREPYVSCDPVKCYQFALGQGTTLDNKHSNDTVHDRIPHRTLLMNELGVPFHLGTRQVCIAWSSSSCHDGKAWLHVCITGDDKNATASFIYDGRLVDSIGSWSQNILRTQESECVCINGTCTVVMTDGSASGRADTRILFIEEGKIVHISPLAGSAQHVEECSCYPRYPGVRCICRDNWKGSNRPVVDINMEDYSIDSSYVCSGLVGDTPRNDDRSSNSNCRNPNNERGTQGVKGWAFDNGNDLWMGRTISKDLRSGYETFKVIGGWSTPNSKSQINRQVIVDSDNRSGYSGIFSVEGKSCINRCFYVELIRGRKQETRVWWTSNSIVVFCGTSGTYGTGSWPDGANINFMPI
UniProt P27907, whole entry, looked up: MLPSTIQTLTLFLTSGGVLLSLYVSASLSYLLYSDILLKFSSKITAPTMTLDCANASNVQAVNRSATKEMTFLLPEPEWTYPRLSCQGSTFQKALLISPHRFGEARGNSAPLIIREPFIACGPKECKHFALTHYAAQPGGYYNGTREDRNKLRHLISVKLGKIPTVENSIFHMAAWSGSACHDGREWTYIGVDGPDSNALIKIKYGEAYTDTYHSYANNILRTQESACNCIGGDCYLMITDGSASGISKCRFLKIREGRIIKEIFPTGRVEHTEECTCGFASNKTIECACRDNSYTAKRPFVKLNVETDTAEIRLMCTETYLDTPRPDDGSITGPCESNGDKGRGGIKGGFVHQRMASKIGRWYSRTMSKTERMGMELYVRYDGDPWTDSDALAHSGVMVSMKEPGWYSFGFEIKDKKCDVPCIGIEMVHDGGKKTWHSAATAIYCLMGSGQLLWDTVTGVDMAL

Tests used:
[1] = biological target: whole virus influenza neuraminidase, influenza A strain NWS/Tokyo (Influenza A virus, UniProt P06820); assay type: biochemical; conditions: read-out: Binding Constants (M) / inhibition constants (IC50), NWS/Tokyo
[2] = biological target: whole virus influenza neuraminidase, influenza B strain B/Vic/02/87 (Influenza B virus, UniProt P27907); assay type: biochemical; conditions: read-out: Binding Constants (M) / inhibition constants (IC50), B/Vic/02/87

5-acetamido-7-{6′-[6″-(6″′-biotinylaminocaproyl) -tri-amingcaroyl]-aminohexyl}-carbamoyloxy-4-guanidino -2,3,4,5-tetradeoxy-D-glycero-D-gaacto-non-2-enopyranosonic acid [Compound No. 26]
IC50 [1]: 2e-08 M

DANA [reference compound]
IC50 [2]: 2e-05 M
